Pooled drug test results. Numbers come from NIAID ChemDB, via PubChem.

All rows: whole-cell or culture tests; species: HIV-1; cells: MT-4; endpoint: fold resistance

Fold resistance: result on the changed form divided by that on wild type. Rows are shuffled and stem from different studies. An empty or dashed field is not shown.

SMILES | strain or isolate | changes | read by | result
O=C1Nc2ccc(Cl)c3c2[C@](C(F)(F)F)(C=C(c2ccccc2)O3)N1 |  | RT-K103N | p24 | 5.61
C=Cc1c(Oc2cc(C)cc(C)c2)c(CC)c(C)[nH]c1=O |  | RT-K103N Y181C | cytopathic effect / MTT | 65
CCc1c(Cc2cc(Cl)cc(Cl)c2)n(COCC=C(C)C)c(=O)[nH]c1=O | NNRTI-resistant (RT K103N Y181C) A17 | RT-K103N Y181C | cytopathic effect / MTT | >200
C=CCNC(=O)CSc1cnc(Nc2ccc(C#N)cc2)nc1Oc1c(C)cc(C#N)cc1C |  | Y181C | MTT | 6.8
CC1(C)Oc2ccc3ccc(=O)oc3c2[C@@H](OC(=O)C23CCC(C)(C(=O)O2)C3(C)C)[C@H]1OC(=O)C12CCC(C)(C(=O)O1)C2(C)C | NL4-3 | RT-G550K | p24 | 0.72
CCCc1c(Cc2ccccc2)n(COC/C(C)=C/c2ccccc2)c(=O)[nH]c1=O | NNRTI-resistant (RT Y181C) N119 | RT-Y181C | cytopathic effect / MTT | >2500
Cc1cc(S(N)(=O)=O)ccc1NC(=O)COc1ccc(Cl)cc1C(=O)c1cc(F)cc(C(F)(F)F)c1 | Nevirapine-resistant (RT Y181C) | RT-Y181C | cytopathic effect / propidium iodide | ~1
CCc1c(C)[nH]c(=O)c(SC)c1Oc1cc(C)cc(C)c1 |  | RT-Y181C | cytopathic effect / MTT | 16
CCOc1c(Cl)cc(F)c(CCNC(=S)Nc2ccc(Br)cn2)c1Cl | IIIB | RT-L100I | cytopathic effect / XTT | 76.9
C#CCNC(=O)CSc1cnc(Nc2ccc(C#N)cc2)nc1Oc1c(C)cc(C#N)cc1C |  | E138K | MTT | 2.9
CCCc1c(Cc2cc(C)cc(C)c2)n(COC2C=CCCC2)c(=O)[nH]c1=O | NNRTI-resistant (RT K103N Y181C) A17 | RT-K103N Y181C | cytopathic effect / MTT | >3333
Cc1ccc(Oc2nc(Nc3ccc(C#N)cc3)c(=O)n(C)c2C)c(C)c1 |  | RT-L100I K103N | cytopathic effect / MTT | 528
Cc1cc(N)c(N)c(C)c1OCC(=O)N[C@@H](Cc1ccccc1)[C@H](O)CN(CC(C)C)S(=O)(=O)c1ccc2nc(N)oc2c1 | LAI | PR-L010F M046I M071V I084V | cytopathic effect / MTT | 8.9
CCc1c(Cc2cc(Cl)cc(Cl)c2)n(COC2CCc3ccccc32)c(=O)[nH]c1=O | NNRTI-resistant (RT Y181C) N119 | RT-Y181C | cytopathic effect / MTT | 6
COc1c(Cl)ccc2c1[C@@](C#Cc1ccccc1)(C(F)(F)F)NC(=O)N2 |  | RT-K103N | p24 | 14.3
CNc1nc2ccc(S(=O)(=O)N(CC(C)C)C[C@@H](O)[C@H](Cc3ccccc3)NC(=O)O[C@H]3CO[C@H]4OCC[C@H]43)cc2o1 | LAI | PR-L010F M046I M071V I084V | cytopathic effect / MTT | 1
CCCc1c(Cc2ccccc2)n(COC/C=C/c2ccccc2)c(=O)[nH]c1=O | NNRTI-resistant (RT Y181C) N119 | RT-Y181C | cytopathic effect / MTT | >10000
Cc1ccc(Oc2cn(C)c(=O)c(Nc3ccc(F)cc3)n2)c(C)c1 |  | RT-L100I | cytopathic effect / MTT | >7.95
Cc1cc(Cl)cc(C(=O)c2cc(Cl)ccc2OCC(=O)Nc2ccc(S(N)(=O)=O)cc2C)c1 | Nevirapine-resistant (RT Y181C) | RT-Y181C | cytopathic effect / propidium iodide | ~0.1
CC(C)[C@H](NC(=O)OCc1ccccn1)C(=O)N[C@@H](Cc1ccccc1)[C@@H](O)C[C@H](Cc1ccccc1)NC(=O)OCc1cccnc1 | NL4-3 | PR-L10R L63P | p24 | 1
Cc1ccc(C2CC2)c(-c2ccc3c(c2)CCCO3)c1[C@H](OC(C)(C)C)C(=O)O | NL4-3 | INSTI-resistant (IN-E92Q) | luminescence | 1
CCc1c(C)[nH]c(=O)c(Sc2ccccc2)c1Oc1cc(C)cc(C)c1 |  | RT-K103N | cytopathic effect / MTT | 79
Nc1nc(=O)n([C@H]2C=C[C@@H](CO)O2)cc1F | XM-ABC-resistant | RT-K65R L74V M184V Y115F | p24 | 10
Cc1cc(C#N)cc(C)c1Oc1nc(Nc2ccc(C#N)cc2)ncc1SCC(N)=O |  | E138K | MTT | 1.8
N#Cc1cc2[nH]c3ccccc3c2n(-c2ccc([N+](=O)[O-])cc2)c1=O | H | RT-K103N Y181C | cytopathic effect / MTT | 5
CC(C)CN(C[C@@H](O)[C@H](Cc1ccccc1)NC(=O)OCc1cccnc1)S(=O)(=O)c1ccc2nc(N)oc2c1 | LAI | PR-L010F M046I M071V I084V | cytopathic effect / MTT | 50
O=C1Nc2ccc(Cl)c(O)c2[C@@](C#Cc2ccccc2)(C(F)(F)F)N1 |  | RT-K103N | p24 | 4.41
CCc1c(Cc2cc(C)cc(C)c2)n(COCC2CC=CCC2)c(=O)[nH]c1=O | NNRTI-resistant (RT K103N Y181C) A17 | RT-K103N Y181C | cytopathic effect / MTT | >5000
CC(C)CN(C[C@@H](O)[C@H](Cc1ccccc1)NC(=O)OC1COC2OCCC12)S(=O)(=O)c1ccc2nc(N)oc2c1 | LAI | PR-L010F M046I M071V I084V | cytopathic effect / MTT | 1.3
CCc1c(C)[nH]c(=O)c(Cl)c1Oc1cc(C)cc(C)c1 |  | RT-L100I | cytopathic effect / MTT | 5
Cc1cc(C#N)cc(C)c1Oc1nc(Nc2ccc(C#N)cc2)ncc1SCC(=O)NCc1ccc(O)cc1 |  | Y188L | MTT | 12.3
CCOCn1c(Cc2ccccc2)c(C(C)C)c(=O)[nH]c1=O | NNRTI-resistant (RT K103N Y181C) A17 | RT-K103N Y181C | cytopathic effect / MTT | >500
CCCc1c(Cc2cc(C)cc(C)c2)n(COC/C=C/c2ccccc2)c(=O)[nH]c1=O | NNRTI-resistant (RT Y181C) N119 | RT-Y181C | cytopathic effect / MTT | 100
Cc1cc(C#N)cc(C)c1Oc1nc(Nc2ccc(C#N)cc2)ncc1SCC(=O)NCC1CCCO1 |  | RES056 | MTT | 68.4
Nc1nc(NC2CC2)c2ncn([C@H]3C=C[C@@H](CO)C3)c2n1 | XM-AZT-resistant | RT-M41L D67N K70R T215Y K219Q | p24 | 2.2
C=CCOCn1c(Cc2cc(Cl)cc(Cl)c2)c(CC)c(=O)[nH]c1=O | NNRTI-resistant (RT Y181C) N119 | RT-Y181C | cytopathic effect / MTT | >333
Cc1ccc(C2CC2)c(-c2cc(F)c3c(c2C)CCCO3)c1[C@H](OC1CC1)C(=O)O | NL4-3 | INSTI-resistant (IN-Y143R) | luminescence | 0.4
O=C1Nc2ccc(Cl)cc2[C@@](C#CC2CC2)(C(F)(F)F)N1 |  | RT-K103N | p24 | 5
CCCc1c(Cc2cc(C)cc(C)c2)n(COCC2CC=CCC2)c(=O)[nH]c1=O | NNRTI-resistant (RT Y181C) N119 | RT-Y181C | cytopathic effect / MTT | >1250
Cn1c2ccccc2c2c1cc(C#N)c(=O)n2-c1ccc([N+](=O)[O-])cc1 | J | RT-I31L L100I K103N E138G Y181C L214F | cytopathic effect / MTT | 5
Cc1cc(Br)ccc1C(=O)N[C@@H](Cc1ccccc1)[C@H](O)CN(CC(C)C)S(=O)(=O)c1ccc2nc(N)oc2c1 | LAI | PR-L010F M046I M071V I084V | cytopathic effect / MTT | 13.5
CCc1c(Cc2cc(Cl)cc(Cl)c2)n(COC/C(C)=C/c2ccccc2)c(=O)[nH]c1=O | NNRTI-resistant (RT Y181C) N119 | RT-Y181C | cytopathic effect / MTT | 66
Cc1c(C(=O)N[C@@H](Cc2ccccc2)[C@H](O)CN(CC(C)C)S(=O)(=O)c2ccc3nc(N)oc3c2)ccc2ncoc12 | LAI | PR-L010F M046I M071V I084V | cytopathic effect / MTT | 28
Cc1cc(C#N)cc(C)c1Oc1nc(Nc2ccc(C#N)cc2)c(=O)n(C)c1C |  | RT-Y188L | cytopathic effect / MTT | 1
Cc1cc(N2CCS(=O)CC2)ccc1NC(=O)COc1ccc(Cl)cc1C(=O)c1nccs1 | Nevirapine-resistant (RT Y181C) | RT-Y181C | cytopathic effect / propidium iodide | ~10
CNc1nc2ccc(S(=O)(=O)N(CC(C)C)C[C@@H](O)[C@H](Cc3ccccc3)NC(=O)OCc3cncs3)cc2o1 | LAI | PR-L010F M046I M071V I084V | cytopathic effect / MTT | 36
CCOc1ccc(F)c(CCNC(=S)Nc2ncc(C(F)(F)F)s2)c1Cl | IIIB | RT-Y181C | cytopathic effect / XTT | >28.6
COc1cc2c(cc1Cc1cccc(Cl)c1F)c(=O)c(C(=O)O)cn2[C@H](CO)C(C)C | NL4-3 | T174I | luminescence | 1
Cc1cc(OCCCS(N)(=O)=O)ccc1NC(=O)COc1ccc(Cl)cc1C(=O)c1cc(F)cc(C(F)(F)F)c1 | Nevirapine-resistant (RT Y181C) | RT-Y181C | cytopathic effect / propidium iodide | ~1
COCCNC(=O)CSc1cnc(Nc2ccc(C#N)cc2)nc1Oc1c(C)cc(C#N)cc1C |  | K103N | MTT | 0.5
CCc1cc(C#N)cc(C(=O)c2cc(Cl)ccc2OCC(=O)Nc2ccc(S(N)(=O)=O)cc2C)c1 | Nevirapine-resistant (RT Y181C) | RT-Y181C | cytopathic effect / propidium iodide | ~1
Cc1cc(C#N)cc(C)c1Oc1nc(Nc2ccc(C#N)cc2)ncc1SCC(=O)NC1CC1 |  | RES056 | MTT | 48.6
N#Cc1cc(Cl)cc(Oc2c(Br)ccc(CC(=O)Nc3ccc(S(N)(=O)=O)cc3Cl)c2F)c1 |  | L100I |  | <1
Cc1cc(C#N)cc(C)c1Oc1nc(Nc2ccc(C#N)cc2)ncc1SCC(=O)NCCN1CCOCC1 |  | Y181C | MTT | 3.8
CCc1c(C)[nH]c(=O)c(OC)c1Oc1cc(C)cc(C)c1 |  | RT-K103N | cytopathic effect / MTT | 32